Taken from: PubChem BioAssay AID504761 (Drosophila RNAi Screening Center, 2011)

- Assay: 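Insect host genes that dengue virus relies on to spread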 (primary screen)
- System: D.Mel-2 cells from Drosophila
- Reagents: long dsRNA against Drosophila genes
- Conditions: infection with dengue virus type 2; dose and infection time not stated
- Detection: 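Per well on two replicate plates, imaging gave the percent of cells positive for viral envelope protein, ranked by infection, and a nuclear count of cells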
- Reading the numbers: infection score: higher = more virus-infected cells; cell count: higher = more cells in the well
- Rule for the call: 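Very low infection ranking in both replicate wells (chance probability at most 0.065), then a retest showing infection dropped 1.5-fold or more at p below 0.05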
- Calls: active = confirmed: knock-down lowers infection; inactive = not picked or not confirmed
The deposit covers about 22,000 reagents; below is a random part of those that have a named target and a result. Over the whole deposit, 116 (0.52%) were called active. 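Calls depend on retest data that are not deposited; infection was ranked per plate without normalising between plates; the unit of the infection score is not given.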 Raw values vary from plate to plate and are shown uncorrected. Reagents against one gene are numbered here. Not given: the amount of reagent, the time to read-out.

Silencing of PIG-X came out at: infection score, replicate 1 = 1.7; infection score, replicate 2 = 18.7; cell count, replicate 1 = 6893; cell count, replicate 2 = 5716; inactive.
Depletion of santa-maria #1 resulted in: infection score, replicate 1 = 0.96; infection score, replicate 2 = 0.35; cell count, replicate 1 = 5966; cell count, replicate 2 = 6260; inactive.
For santa-maria #2, the values are infection score, replicate 1 = 8.57; infection score, replicate 2 = 1.72; cell count, replicate 1 = 6184; cell count, replicate 2 = 6858; inactive.
With knock-down of dyw #1, the record shows infection score, replicate 1 = 1.5; infection score, replicate 2 = 2.5; cell count, replicate 1 = 466; cell count, replicate 2 = 6526; inactive.
Knock-down of dyw #2 gave: infection score, replicate 2 = 15.2; cell count, replicate 1 = 441; cell count, replicate 2 = 4700; inactive.
Silencing of CG14421 #1 came out at: infection score, replicate 1 = 5.02; infection score, replicate 2 = 5.02; cell count, replicate 1 = 5441; cell count, replicate 2 = 5632; inactive.
CG14421 #2 gave infection score, replicate 1 = 4.54; infection score, replicate 2 = 7.03; cell count, replicate 1 = 6188; cell count, replicate 2 = 6246; inactive.
Knock-down of Ocrl gave: infection score, replicate 1 = 3.69; infection score, replicate 2 = 2.49; cell count, replicate 1 = 6257; cell count, replicate 2 = 6517; inactive.
stum #1 showed infection score, replicate 1 = 1.55; infection score, replicate 2 = 2.49; cell count, replicate 1 = 6792; cell count, replicate 2 = 7032; inactive.
stum #2 scored infection score, replicate 1 = 3.65; infection score, replicate 2 = 5.19; cell count, replicate 1 = 6684; cell count, replicate 2 = 6554; inactive.
Knock-down of svr #1 resulted in: infection score, replicate 1 = 3.94; infection score, replicate 2 = 2.91; cell count, replicate 1 = 6316; cell count, replicate 2 = 5604; inactive.
After knock-down of svr #2 the results were infection score, replicate 1 = 1.14; infection score, replicate 2 = 13.1; cell count, replicate 1 = 6750; cell count, replicate 2 = 5810; inactive.
Against svr #3, the values are infection score, replicate 1 = 20.3; infection score, replicate 2 = 7.34; cell count, replicate 1 = 6414; cell count, replicate 2 = 6352; inactive.
Depletion of CG43775 resulted in: infection score, replicate 1 = 17.3; infection score, replicate 2 = 12.3; cell count, replicate 1 = 5866; cell count, replicate 2 = 3534; inactive.
Silencing of CG12519 resulted in: infection score, replicate 1 = 19.4; infection score, replicate 2 = 5.91; cell count, replicate 1 = 6567; cell count, replicate 2 = 6175; inactive.
ATPsynbeta scored infection score, replicate 1 = 6.99; infection score, replicate 2 = 8.24; cell count, replicate 1 = 4021; cell count, replicate 2 = 1820; inactive.
Against Galphao #1 the deposit lists infection score, replicate 1 = 5.47; infection score, replicate 2 = 6.09; cell count, replicate 1 = 6379; cell count, replicate 2 = 6614; inactive.
Depletion of Galphao #2 gave: infection score, replicate 1 = 10.4; infection score, replicate 2 = 9.52; cell count, replicate 1 = 6449; cell count, replicate 2 = 5945; inactive.
Against vri #1 the deposit lists infection score, replicate 1 = 4.44; infection score, replicate 2 = 14.5; cell count, replicate 1 = 5611; cell count, replicate 2 = 5835; inactive.
After knock-down of vri #2 the results were infection score, replicate 1 = 3.92; infection score, replicate 2 = 2.41; cell count, replicate 1 = 6024; cell count, replicate 2 = 6179; inactive.
Pus10 gave infection score, replicate 1 = 17.6; infection score, replicate 2 = 28; cell count, replicate 1 = 5176; cell count, replicate 2 = 4744; inactive.

Records above whose gene name begins with P or p:
PIG-X — infection score, replicate 1 = 1.7; infection score, replicate 2 = 18.7; cell count, replicate 1 = 6893; cell count, replicate 2 = 5716; outcome = inactive
Pus10 — infection score, replicate 1 = 17.6; infection score, replicate 2 = 28; cell count, replicate 1 = 5176; cell count, replicate 2 = 4744; outcome = inactive
